Molecular target: ClyA‐SpG‐6×His displayed on the surface of CSS‐BBV (not stated | Streptococcus (species not stated))
Experiment: ultrafiltration, free protein measured by A280

Question: For “gD‐Fc (pseudorabies virus gD fused to the Fc fragment of porcine IgG1) (Fc fusion)”, which maximum conjugation efficiency (percent of input bound) is on record?
Answer: 69.9%

— publication PMC12663866, “Engineered Low‐Endotoxin Bacterial Biomimetic Vesicles for Enhanced Oral Dual‐Antigen Subunit Vaccine Delivery” (2025)
